A mixed list of measured activities; the numbers were collected in NIAID ChemDB.

Common to all: whole-cell or culture tests

A number after MIC or MFC names an inhibition level or a share of isolates.

compound	strain or isolate	mutations	read-out	setting	method	agent	result
COc1cc(Cc2cnc(N)nc2N)cc(OC)c1OC	Isolate 94-886	-	MBC	-	-	Mycobacterium ulcerans	>32 µg/mL
O=C1c2cc(Cl)ccc2OP(=O)(c2ccccc2)N1c1ccc(C(F)(F)F)cc1	My 235/80	-	MIC	7 d	-	Mycobacterium kansasii	8 µM
Nc1ccc(S(=O)(=O)c2ccc(N)cc2)cc1	ATCC 19423	-	MBC	-	-	Mycobacterium ulcerans	4 µg/mL
CC[C@@H](C(=O)[C@@H](C)[C@@H](O)[C@H](C)[C@@H]1O[C@@H]([C@@H](CC)C(=O)O)CC[C@@H]1C)[C@H]1O[C@@]2(C=C[C@@H](O)[C@@]3(CC[C@@](C)([C@H]4CC[C@](O)(CC)[C@H](C)O4)O3)O2)[C@H](C)C[C@@H]1C	-	G364T	MIC	-	resazurin	Mycobacterium aurum	0.08 µg/mL
O=C(Nc1ccc(Cl)c(Cl)c1)c1cc(Cl)ccc1OP(=O)(c1ccccc1)c1ccccc1	My 235/80	-	MIC	14 d	-	Mycobacterium kansasii	8 µM
C(=N\Nc1nncs1)/c1cn(CC2CC2)c2ccccc12	1173P2	-	MIC100	24 h	broth dilution	Mycobacterium bovis BCG	7.81 µg/mL
O=C(Nc1ccccc1)c1ccccc1OP(=O)(OCc1ccccc1)OCc1ccccc1	My 235/80	-	MIC	21 d	-	Mycobacterium kansasii	500 µM
CN(C)c1cc(NC(=O)CNC(C)(C)C)c(O)c2c1C[C@H]1C[C@H]3[C@H](N(C)C)C(=O)C(C(N)=O)=C(O)[C@@]3(O)C(=O)C1=C2O	X72	-	MIC	-	broth dilution	Mycobacterium massiliense	2 µg/mL
CCCn1cc(/C=N/Nc2nncs2)c2ccccc21	1173P2	-	MIC100	24 h	broth dilution	Mycobacterium bovis BCG	250 µg/mL
O=C1c2cc(Cl)ccc2OP(=O)(c2ccccc2)N1c1ccc(Cl)c(Cl)c1	My 235/80	-	MIC	21 d	-	Mycobacterium kansasii	8 µM
NNC(=S)N/N=C/c1cn(CC2CCCCC2)c2ccccc12	1173P2	-	MIC100	48 h	broth dilution	Mycobacterium bovis BCG	>500 µg/mL
O=C(Nc1ccc(Br)cc1)c1cc(Cl)ccc1OP(=O)(OCc1ccccc1)OCc1ccccc1	My 6509/96	-	MIC	14 d	-	Mycobacterium kansasii	32 µM
CNc1ccc2oc(C[C@@H]3OC4(CC[C@@H]3C)O[C@H](C(C)C(=O)c3ccc[nH]3)[C@H](C)C[C@H]4C)nc2c1C(=O)O	-	T532 insertion	MIC	-	resazurin	Mycobacterium aurum	0.64 µg/mL
CC[C@H]1OC(=O)[C@H](C)[C@@H](O[C@H]2C[C@@](C)(OC)[C@@H](O)[C@H](C)O2)[C@H](C)[C@@H](O[C@@H]2O[C@H](C)C[C@H](N(C)C)[C@H]2O)[C@](C)(OC)C[C@@H](C)C(=O)[C@H](C)[C@@H](O)[C@]1(C)O	AC1	-	MIC	-	broth dilution	Mycobacterium abscessus	1 µg/mL
CCn1cc(/C=N/Nc2nncs2)c2ccccc21	1173P2	-	MIC100	24 h	broth dilution	Mycobacterium bovis BCG	125 µg/mL

For reference, 2 entries again:

compound,strain or isolate,mutations,read-out,setting,method,agent,result
O=C(Nc1ccc(Cl)c(Cl)c1)c1cc(Cl)ccc1OP(=O)(c1ccccc1)c1ccccc1,My 235/80,-,MIC,14 d,-,Mycobacterium kansasii,8 µM
CCCn1cc(/C=N/Nc2nncs2)c2ccccc21,1173P2,-,MIC100,24 h,broth dilution,Mycobacterium bovis BCG,250 µg/mL

An empty or dashed field is not shown. Rows are shuffled and stem from different studies.